# Sequence variants of PSTVd loop 15 after infection

Region: loop 15 of PSTVd (intermediate strain), upper and lower strand joined, each 5' to 3', the first 7 letters being the upper strand, closing pairs included. Wild type: GGAAACCGCUACUAC. Varied positions (N): GGAAACCGNNNNNNC.

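Three N. benthamiana plants were inoculated with the whole mutant pool. Progeny were sequenced from the inoculated region (day 5), the margin of the inoculated leaf (day 10) and systemic leaves (day 12).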

Values are reads per thousand in the sample; higher means more abundant, 0 means not found. Each value is the mean of three plants. "Pool" is the share in the plasmid pool used as inoculum, on the same scale. The inoculated region was read from the minus strand, the other sites from the plus strand. Samples held 43,870 to 66,106 reads, so the smallest values rest on one or two reads. For reference, wild type rose from 33.9 per thousand in the pool to 202, 200, 159 (inoculated region), 724, 746, 710 (leaf margin) and 856, 883, 880 (systemic leaves). The authors trace changes outside the varied positions to PCR and sequencing errors or to mutation in the plant; presence does not show that a variant is infectious alone.

With GGAAACCGUUACGUC (pool 0.288) the assay gave inoculated region 0.0558; leaf margin 0.0175; systemic leaves 0. For GGAAACCGCGCGAAC (pool 0.192) the result was inoculated region 0.322; leaf margin 0.123; systemic leaves 0.0718. GGAAACCGAUUAGUC (pool 0.224) gave inoculated region 0.251; leaf margin 0.373; systemic leaves 0.0130. GGAAACCGAAGCUGC (pool 0.192) gave inoculated region 0.151; leaf margin 0.00742; systemic leaves 0. GGAAACCGUAGUCGC (pool 0.320) gave inoculated region 0.0678; leaf margin 0.00539; systemic leaves 0.

GGAAACCGAGUAUCC (pool 0.272) gave inoculated region 0.187; leaf margin 0.0141; systemic leaves 0.00537. With GGAAACCGAAGUUAC (pool 0.256) the assay gave inoculated region 0.452; leaf margin 0.118; systemic leaves 0.0211. GGAAACCGUGAAGGC (pool 0.224) read inoculated region 0.0838; leaf margin 0.00668; systemic leaves 0. GGAAACCGCUAAGGC (pool 0.176) gave inoculated region 0.121; leaf margin 0.0134; systemic leaves 0. GGAAACCGAGGGCAC (pool 0.272) read inoculated region 0.0680; leaf margin 0.0128; systemic leaves 0.

For GGAAACCGCAUGUGC (pool 0.272) the result was inoculated region 0.105; leaf margin 0.0187; systemic leaves 0. GGAAACCGCAAGUCC (pool 0.256) read inoculated region 0.284; leaf margin 0.0967; systemic leaves 0.0490. With GGAAACCGUUACGCC (pool 0.128) the assay gave inoculated region 0.0915; leaf margin 0.0141; systemic leaves 0.00760. GGAAACCGUGGACAC (pool 0.272) read inoculated region 0.101; leaf margin 0.0187; systemic leaves 0. GGAAACCGUAGGGGC (pool 0.224) read inoculated region 0.0633; leaf margin 0.0128; systemic leaves 0.

With GGAAACCGUGCAUAC (pool 0.240) the assay gave inoculated region 0.329; leaf margin 0.113; systemic leaves 0.0546. With GGAAACCGGGAGCAC (pool 0.208) the assay gave inoculated region 0.0686; leaf margin 0; systemic leaves 0. For GGAAACCGCAGUUGC (pool 0.112) the result was inoculated region 0.0729; leaf margin 0.0200; systemic leaves 0.00537. For GGAAACCGCAGUGGC (pool 0.352) the result was inoculated region 0.107; leaf margin 0.0208; systemic leaves 0. GGAAACCGAUUGGAC (pool 0.272) read inoculated region 0.0778; leaf margin 0.00668; systemic leaves 0.

GGAAACCGCAUCCUC (pool 0.240) gave inoculated region 0.211; leaf margin 0.0141; systemic leaves 0.00537. With GGAAACCGUGUGAGC (pool 0.256) the assay gave inoculated region 0.116; leaf margin 0; systemic leaves 0. GGAAACCGACGGCAC (pool 0.240) gave inoculated region 0.145; leaf margin 0.0121; systemic leaves 0.00537. With GGAAACCGGCAAGUC (pool 0.128) the assay gave inoculated region 0.109; leaf margin 0; systemic leaves 0. GGAAACCGUAGACCC (pool 0.224) gave inoculated region 0.0909; leaf margin 0.0141; systemic leaves 0.

GGAAACCGAUUGAAC (pool 0.176) gave inoculated region 0.308; leaf margin 0.163; systemic leaves 0.00537. For GGAAACCGCCGCUAC (pool 0.192) the result was inoculated region 0.314; leaf margin 0.138; systemic leaves 0.0591. With GGAAACCGGUCCCGC (pool 0.192) the assay gave inoculated region 0.0900; leaf margin 0.00539; systemic leaves 0. GGAAACCGGUCCGUC (pool 0.208) read inoculated region 0.104; leaf margin 0.0128; systemic leaves 0. GGAAACCGCAAUCCC (pool 0.208) read inoculated region 0.145; leaf margin 0.00668; systemic leaves 0.

With GGAAACCGUUGGAUC (pool 0.320) the assay gave inoculated region 0.112; leaf margin 0.0175; systemic leaves 0. With GGAAACCGUCGAGUC (pool 0.224) the assay gave inoculated region 0.0849; leaf margin 0.0108; systemic leaves 0. GGAAACCGCCGACUC (pool 0.160) read inoculated region 0.258; leaf margin 0.109; systemic leaves 0.0268. GGAAACCGAAUAGGC (pool 0.176) gave inoculated region 0.106; leaf margin 0.0208; systemic leaves 0. GGAAACCGGUCUUCC (pool 0.224) gave inoculated region 0.129; leaf margin 0.0254; systemic leaves 0.

GGAAACCGUUCCUAC (pool 0.272) read inoculated region 0.340; leaf margin 0.129; systemic leaves 0.0306. GGAAACCGCGCACUC (pool 0.320) gave inoculated region 0.0939; leaf margin 0.0148; systemic leaves 0.00537. For GGAAACCGACUUGUC (pool 0.208) the result was inoculated region 0.149; leaf margin 0.0148; systemic leaves 0.

Source: Wu et al. 2024 (doi:10.1371/journal.ppat.1012142), supplementary data.